In patent US20240390349A1, “DOSING REGIMEN OF CAPSID INHIBITOR” (priority 2023, published 2024):

Tested on: HIV-1 capsid LEN resistance mutations
Details: HTE participants (Example 4)
Text: In HTE participants (Example 4), the resistance analysis population (RAP) during the oral bridging period included 9 participants (16%, 9/57) who met the criteria for resistance analysis, including 4 participants also present in the previous analysis. […];

CC(C)(C#Cc1ccc(-c2ccc(Cl)c3c(NS(C)(=O)=O)nn(CC(F)(F)F)c23)c([C@H](Cc2cc(F)cc(F)c2)NC(=O)Cn2nc(C(F)(F)F)c3c2C(F)(F)[C@@H]2C[C@H]32)n1)S(C)(=O)=O [LEN, N—((S)-1-(3-(4-chloro-3-(methylsulfonamido)-1-(2,2,2-trifluoroethyl)-1H-indazol-7-yl)-6-(3-methyl-3-(methylsulfonyl)but-1-yn-1-yl)pyridin-2-yl)-2-(3,5-difluorophenyl)ethyl)-2-((3bS,4aR)-5,5-difluoro-3-(trifluoromethyl)-3b,4,4a,5-tetrahydro-1H-cyclopropa [3,4]cyclopenta [1,2-c]pyrazol-1-yl) acetamide]
Participants in the RAP who developed resistance to LEN: Six of the 9
